Measurements reported in PubChem BioAssay AID624099 (ICCB-Longwood, 2012)
Aim: 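Human genes that papillomavirus E2 requires to repress the HPV18 LCR promoter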 (primary screen). Cells: human C33A cervical carcinoma cells (HPV-negative) stably expressing BPV1 E2 and an HPV18 LCR luciferase reporter. Knock-down reagent: siRNA pool against human genes, 40 nM. Duration: 72 h. Detection: 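Per-well luciferase luminescence, z-scored on each plate against the plate mean and SD with control wells left out, then averaged across three replicate plates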. Reading the numbers: mean z-score and z-score: higher = stronger reporter signal, weaker E2 silencing. Call rule: 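Hit if mean z-score reaches 2 and two or more of three replicate z-scores also reach 2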.
The whole screen tested about 21,000 reagents; below is a random part of them. Of all reagents, 497 (2.4%) got an active call. 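Higher z means weaker E2 silencing; only reporter increases were scored, and knock-downs that hurt cell survival may mask genuine repressor factors.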

| target gene | mean z-score | z-score, replicate A | z-score, replicate B | z-score, replicate C | call |
| --- | --- | --- | --- | --- | --- |
| LINC00312 (long independently transcribed non-coding RNA 312) | 0.06 | -0.14 | -0.19 | 0.51 | inactive |
| LOC391298 (retired record) | 1.03 | 1.14 | 0.73 | 1.21 | inactive |
| RSL1D1 (ribosomal L1 domain containing 1) | -0.56 | -0.83 | -0.57 | -0.29 | inactive |
| FIGN (fidgetin, microtubule severing factor) | -1.26 | -1.51 | -1.48 | -0.79 | inactive |
| JAKMIP2 (janus kinase and microtubule interacting protein 2) | -0.78 | -0.59 | -0.83 | -0.93 | inactive |
| DOK7 (docking protein 7) | 0.46 | 0.27 | 0.37 | 0.74 | inactive |
| ZNF425 (zinc finger protein 425) | -0.5 | -0.84 | -0.73 | 0.06 | inactive |
| FAM47B (family with sequence similarity 47 member B) | -0.71 | -0.77 | -0.61 | -0.73 | inactive |
| AHR (aryl hydrocarbon receptor) | -0.02 | -0.05 | 0.07 | -0.09 | inactive |
| RAD54L (RAD54 like) | -0.21 | -0.37 | -0.19 | -0.06 | inactive |
| METAP1D (methionyl aminopeptidase type 1D, mitochondrial) | -0.66 | -0.71 | -0.44 | -0.84 | inactive |
| SFT2D3 (SFT2 domain containing 3) | -0.07 | 0.27 | -0.45 | -0.03 | inactive |
| PATJ (PATJ crumbs cell polarity complex component) | 0.92 | 1 | 1.09 | 0.68 | inactive |
| CAMTA1 (calmodulin binding transcription activator 1) | -0.63 | -0.42 | -0.82 | -0.66 | inactive |
| NRG1 (neuregulin 1) | -0.01 | -0.17 | -0.01 | 0.14 | inactive |
| ETV2 (ETS variant transcription factor 2) | -0.38 | -0.26 | -0.38 | -0.5 | inactive |
| POLR2F (RNA polymerase II, I and III subunit F) | -3.13 | -3.18 | -3.15 | -3.06 | inactive |
| GFM1 (G elongation factor mitochondrial 1) | 0.78 | 0.56 | 0.88 | 0.89 | inactive |
| DGKD (diacylglycerol kinase delta) | -1.32 | -1.25 | -1.29 | -1.43 | inactive |
| SELENOO (selenoprotein O) | -0.1 | 0.02 | -0.01 | -0.32 | inactive |
| FKBP1C (FKBP prolyl isomerase family member 1C) | 0.11 | 0.08 | 0.05 | 0.18 | inactive |
| KRTAP3-1 (keratin associated protein 3-1) | -0.06 | -0.08 | -0.03 | -0.08 | inactive |
| PCMTD1 | -1.33 | -1.07 | -1.39 | -1.54 | inactive |
| TNRC18 (trinucleotide repeat containing 18) | 2.2 | 1.97 | 2.11 | 2.51 | active |
| EXOC5 (exocyst complex component 5) | 0.76 | 0.73 | 1.01 | 0.54 | inactive |
| CDY1 (chromodomain Y-linked 1) | -0.76 | -1.4 | -0.41 | -0.48 | inactive |
| ZFAND1 (zinc finger AN1-type containing 1) | 1.68 | 1.87 | 1.42 | 1.76 | inactive |
| OLFM2 (olfactomedin 2) | -0.9 | -1.09 | -1.15 | -0.47 | inactive |
| CRYAA (crystallin alpha A) | -1.19 | -1.12 | -1.11 | -1.33 | inactive |
| CYP46A1 (cytochrome P450 family 46 subfamily A member 1) | -0.54 | -0.54 | -0.73 | -0.35 | inactive |
| TRIM71 (tripartite motif containing 71) | 0.07 | 0.18 | 0 | 0.01 | inactive |
| PLEKHG5 (pleckstrin homology and RhoGEF domain containing G5) | -0.3 | -0.47 | -0.4 | -0.02 | inactive |
| ARL4A (ARF like GTPase 4A) | 1.61 | 1.28 | 2.02 | 1.52 | inactive |
| TMEM42 (transmembrane protein 42) | -0.49 | -0.86 | -0.63 | 0.01 | inactive |

Laid out differently: 7 of the entries above.
target gene,mean z-score,"z-score, replicate A","z-score, replicate B","z-score, replicate C",call
OLFM2 (olfactomedin 2),-0.9,-1.09,-1.15,-0.47,inactive
CRYAA (crystallin alpha A),-1.19,-1.12,-1.11,-1.33,inactive
CYP46A1 (cytochrome P450 family 46 subfamily A member 1),-0.54,-0.54,-0.73,-0.35,inactive
TRIM71 (tripartite motif containing 71),0.07,0.18,0,0.01,inactive
PLEKHG5 (pleckstrin homology and RhoGEF domain containing G5),-0.3,-0.47,-0.4,-0.02,inactive
ARL4A (ARF like GTPase 4A),1.61,1.28,2.02,1.52,inactive
TMEM42 (transmembrane protein 42),-0.49,-0.86,-0.63,0.01,inactive

Continued.
| target gene | mean z-score | z-score, replicate A | z-score, replicate B | z-score, replicate C | call |
| --- | --- | --- | --- | --- | --- |
| SPRR1A (small proline rich protein 1A) | 0.27 | 0.31 | 0.34 | 0.17 | inactive |
| PCNX1 (pecanex 1) | 1.02 | 1.01 | 0.86 | 1.2 | inactive |
| KRTAP19-2 (keratin associated protein 19-2) | -0.4 | -0.42 | -0.43 | -0.36 | inactive |
| LOC388214 (retired record) | 0.2 | 0.28 | 0.11 | 0.2 | inactive |
| CAT (catalase) | 0.32 | 0.46 | 0.51 | 0 | inactive |
| ZNF624 (zinc finger protein 624) | -1.1 | -0.89 | -0.73 | -1.68 | inactive |
| LOC256483 (retired record) | 1.05 | 1.25 | 0.99 | 0.92 | inactive |
| DMRT3 (doublesex and mab-3 related transcription factor 3) | -1.39 | -1.48 | -1.29 | -1.39 | inactive |
| ASCC1 (activating signal cointegrator 1 complex subunit 1) | -0.02 | -0.31 | 0.27 | -0.02 | inactive |
| PCDHB6 (protocadherin beta 6) | -0.34 | -0.18 | -0.42 | -0.41 | inactive |
| FBXL3 (F-box and leucine rich repeat protein 3) | 2.7 | 2.75 | 2.8 | 2.55 | active |
| ZRANB1 (zinc finger RANBP2-type containing 1) | -0.28 | -0.67 | -0.37 | 0.2 | inactive |
| NUDT16L2P (nudix hydrolase 16 like 2, pseudogene) | -0.47 | 0.19 | -1.07 | -0.54 | inactive |
| HDHD5 (haloacid dehalogenase like hydrolase domain containing 5) | 2.19 | 1.88 | 2.3 | 2.41 | active |
| FRK (fyn related Src family tyrosine kinase) | 1.37 | 1.23 | 1.96 | 0.91 | inactive |
| PYDC2 (pyrin domain containing 2) | -0.47 | -0.76 | -0.8 | 0.14 | inactive |
| ANKRD22 (ankyrin repeat domain 22) | 0.37 | 0.54 | 0.15 | 0.42 | inactive |
| LOC392467 (retired record) | 1.18 | 1.58 | 1.65 | 0.31 | inactive |
| RNF128 (ring finger protein 128) | -0.61 | -1.02 | -0.73 | -0.07 | inactive |
| UBA5 (ubiquitin like modifier activating enzyme 5) | 0.65 | 1.06 | 0.86 | 0.02 | inactive |
| LOC219414 (retired record) | 0.42 | 0.22 | 0.52 | 0.52 | inactive |
| MRPL54 (mitochondrial ribosomal protein L54) | 1.09 | 1.13 | 0.88 | 1.25 | inactive |
| FBXO45 (F-box protein 45) | 0.36 | 0.63 | 0.07 | 0.38 | inactive |
| TRIM26 (tripartite motif containing 26) | 1.41 | 1.38 | 1.39 | 1.45 | inactive |
| CD9 (CD9 molecule) | 0.76 | 0.75 | 0.97 | 0.57 | inactive |
| GPR37 (G protein-coupled receptor 37) | -0.26 | -0.5 | -0.16 | -0.11 | inactive |
| LOC401616 (retired record) | 0.21 | 0.54 | 0.25 | -0.15 | inactive |
| PKD1P1 | 0.66 | 0.45 | 0.73 | 0.81 | inactive |
| ALYREF (Aly/REF export factor) | -1.8 | -1.72 | -1.76 | -1.92 | inactive |
| HNRNPUL1 (heterogeneous nuclear ribonucleoprotein U like 1) | -0.09 | -0.02 | -0.03 | -0.24 | inactive |
| BCL2L11 (BCL2 like 11) | 0.14 | 0.12 | 0.26 | 0.03 | inactive |
| SATB2-AS1 (SATB2 antisense RNA 1) | 0.56 | 0.71 | 0.56 | 0.41 | inactive |
| GTF3C1 (general transcription factor IIIC subunit 1) | 0.45 | 0.39 | 0.35 | 0.62 | inactive |
| LOC387754 (retired record) | 1.56 | 1.44 | 1.22 | 2.02 | inactive |
| KPNA1 (karyopherin subunit alpha 1) | 0.11 | -0.08 | 0.09 | 0.31 | inactive |
| GNB5 (G protein subunit beta 5) | -0.29 | -0.16 | -0.35 | -0.35 | inactive |
| BEX2 (brain expressed X-linked 2) | 2.1 | 1.58 | 2.42 | 2.28 | active |
| CCR1 (C-C motif chemokine receptor 1) | -0.31 | -0.19 | -0.06 | -0.67 | inactive |
| FN3K (fructosamine 3 kinase) | 0.02 | 0.25 | -0.17 | -0.04 | inactive |
